Values of other authors, collected in patent US8633150B2, “Methods for inducing sustained immune response” (TNI Biotech, Inc., priority 2001, dated 2014).

Test system: CD4 and CD8 T-cell subsets in HIV positive patients
Settings: et al.

Substance: interleukin-2 [IL2]
- toxicity accompanying use (Davey, 2000): major toxicity
- CD4 T-cell subset in HIV positive patients (Kovacs, 1996): elevating the CD4 T-cell subset
- CD8 T-cell count (Schmitz, 1999): increase CD8 T-cell count
